Potato spindle tuber viroid, loop 6: variant abundance in plants

Region: loop 6 of PSTVd (intermediate strain), upper and lower strand joined, each 5' to 3', the first 5 letters being the upper strand, closing pairs included. Wild type: UGACCGCGAG. Varied positions (N): UNNNCGNNNG.

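Three N. benthamiana plants were inoculated with the whole mutant pool. Samples came from the inoculated region at 5 days, the leaf margin at 10 and upper systemic leaves at 12.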

Values are reads per thousand in the sample; higher means more abundant, 0 means not found. Each value is the mean of three plants. "Pool" is the share in the plasmid pool used as inoculum, on the same scale. The inoculated region was read from the minus strand, the other sites from the plus strand. With 36,220-57,551 reads a sample, very low values are single reads. For reference, wild type rose from 20.7 per thousand in the pool to 195, 198, 203 (inoculated region), 629, 591, 734 (leaf margin) and 942, 870, 868 (systemic leaves). The authors trace changes outside the varied positions to PCR and sequencing errors or to mutation in the plant; presence does not show that a variant is infectious alone.

sequence	pool	inoculated region	leaf margin	systemic leaves
UUUUCGAUGG	0.157	0.0768	0	0
UACGCGGUGG	0.183	0.0955	0	0
UGGGCGCAUG	0.0915	0.0893	0	0
UAUGCGUGGG	0.183	0.0538	0	0
UGACCGGGUG	0.248	0.238	0.202	0.150
UCGACGCAGG	0.235	0.0652	0.00920	0
UGCACGAUGG	0.314	0.0949	0	0
UACUCGAACG	0.170	0.0715	0	0
UUCUCGAAGG	0.131	0.0771	0	0
UGCGCGUUCG	0.183	0.0589	0	0
UUACCGCAUG	0.144	0.137	0.00773	0
UCAUCGAAUG	0.275	0.0901	0.00773	0
UAACCGUUCG	0.209	0.114	0.0368	0
UUGUCGAAGG	0.235	0.0476	0	0
UGCUCGCUCG	0.288	0.100	0.0247	0
UUCGCGAAAG	0.222	0.137	0.00920	0
UAUCCGGCUG	0.275	0.0951	0.0169	0
UACACGUUAG	0.327	0.0652	0	0
UUUCCGCCUG	0.183	0.119	0.0232	0
UGUCCGCCAG	0.275	0.673	0.0816	0
UUUACGACCG	0.170	0.0887	0	0
UAUUCGACUG	0.392	0.102	0	0
UUAUCGGGAG	0.209	0.869	0.224	0.0813
UUACCUUACG	0.0131	0	0	0
UAGUCGCGCG	0.235	0.0949	0.00773	0
UGGUCGCCGG	0.157	0.0890	0	0
UGCCCGUACG	0.275	0.0541	0.0169	0
UACUCGAAGG	0.196	0.0602	0	0
UGCACGCGUG	0.170	0.0764	0	0
UCGACGAACG	0.222	0.131	0.00773	0
UGGGCGGAGA	0.0131	0	0	0
UCGGCGGUCG	0.248	0.0719	0.00773	0
UCGUCGGCGG	0.235	0.0650	0.00773	0
UAUGCGAAUG	0.327	0.138	0.00841	0
UGAGCGCCCG	0.288	0.0833	0	0
UACGCGAUGG	0.235	0.0890	0.00920	0
UCGUCGGACG	0.170	0.0598	0	0
UCUUCGCGGG	0.471	0.0773	0.00773	0
UGGACGUUCG	0.209	0.0965	0.0169	0.00599
UGCUCGAGCG	0.183	0.0539	0.00773	0
UCUGCGCGCG	0.314	0.0946	0.00773	0.00684
UAGGCGGGUG	0.248	0.0239	0.00773	0
UAGCCGCGGG	0.235	0.114	0.0699	0
UCGUCGCGUG	0.170	0.113	0	0
UGCCCGUUGG	0.209	0.162	0.00773	0
UUAGCUCGAG	0.0131	0.00615	0	0
UUUGCGGUUG	0.235	0.107	0.0155	0
UCUACGUGAG	0.209	0.113	0.0261	0
UCGUCGAAUG	0.222	0.102	0	0
UUUCCGGACG	0.222	0.118	0.0387	0
UACCCGGGUG	0.118	0.0889	0	0
UACACGACAG	0.131	0.0831	0	0
UCAGCGUUAG	0.353	0.0718	0.0339	0
UUAACGAUAG	0.353	0.594	0.0986	0
UUGGCGUAGG	0.431	0.101	0.00920	0
UAGGCGGUCG	0.340	0.0718	0	0
UCCGCGGAUG	0.183	0.0955	0.00920	0
UAUCCGGCCG	0.157	0.126	0	0
UGAGCGCUUG	0.275	0.0877	0.0353	0
UCAACGCGUG	0.157	0.0719	0.0155	0.00684
UCCUCGGGCG	0.157	0.0471	0.00920	0

The opening 3 entries, copied out:

sequence	pool	inoculated region	leaf margin	systemic leaves
UUUUCGAUGG	0.157	0.0768	0	0
UACGCGGUGG	0.183	0.0955	0	0
UGGGCGCAUG	0.0915	0.0893	0	0

Values reported by Wu et al. 2024 (doi:10.1371/journal.ppat.1012142).